According to publication PMC9657007:
Protein sequences can lack the tags named with them.

Columns and labels:
Assay in all cases: Southwestern blot
MerR = molecular target: T1, MerR (UniProt Q2GHU3); details: recombinant protein; residues 1-126; protein details: pET32a fusion tags (32 kDa with tags); label: 32P; probe letters rebuilt from the primers and the genome
T1 sequence (looked up): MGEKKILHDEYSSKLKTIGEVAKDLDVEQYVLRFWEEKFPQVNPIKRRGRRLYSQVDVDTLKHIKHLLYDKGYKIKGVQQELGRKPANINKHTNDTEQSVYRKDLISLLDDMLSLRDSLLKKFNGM

Tr1 = molecular target: T2, Tr1 (UniProt Q2GF81); details: recombinant protein; residues 1-213; protein details: pET32a fusion tags (41.8 kDa with tags); label: 32P; probe letters rebuilt from the primers and the …
T2 sequence (looked up): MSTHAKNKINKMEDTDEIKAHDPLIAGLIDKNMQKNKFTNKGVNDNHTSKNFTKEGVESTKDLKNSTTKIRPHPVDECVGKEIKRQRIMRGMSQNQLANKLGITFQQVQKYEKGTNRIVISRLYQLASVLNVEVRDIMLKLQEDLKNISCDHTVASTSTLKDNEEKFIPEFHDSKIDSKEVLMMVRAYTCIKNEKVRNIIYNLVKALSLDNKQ

EcxR = molecular target: T3, EcxR (UniProt Q2GG40); details: recombinant protein; residues 1-108; protein details: pET32a fusion tags (rEcxR 29.6 kDa with tags); label: 32P; probe letters rebuilt from the primers and the genome
T3 sequence (looked up): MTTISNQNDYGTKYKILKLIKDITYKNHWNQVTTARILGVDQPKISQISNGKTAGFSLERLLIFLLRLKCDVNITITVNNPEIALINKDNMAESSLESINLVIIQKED

Measured: binding result

GACTCTAGACTTTTAATTTTATTATTGCCACATGTTAAAAATAATCTAAACTTGTTTTTATTATTGCTGCAGGTAAATAAAAATAGTGGCAAAAGAATGTAGCAATAAGAGGGGGGGGGGGGGGACTAGTTTATAAGTGCTGTTTTTCTCACCTTTACACATGATACTATACTTAACCAGTTTTTTTGCTATTACTTACCTGACGTAATATATTAAATTTTCCTTACAAAAGTTACCGATATTTTATACAAAAATTTATATTCTGACTTGCTTTTATATGACACTTCTACTATTGTTAATTTATTTGTCACTATTAGGTTATATATGAATTACA (double strand) [p28-Omp19 full promoter (SWB probe)]
binds: all assays above

TTGCTCAACCATAAAATAATGGGAAATTACCTTTTCTAGGAAGTTTCTCATTATTTAACAGTTAACTTTCTGTAAACTTCTAATAACAGTATTTTGTTCACTCTTCCCCTTAATAAAAATCATAAGTTTACAATAATGTCAAAAAGATTTCTTTTTAAACACATTTAAAATGGCTAAACCGTTTTCTGCTTTATTAGAATGATTCCCAAATAAATTTTAATTAATTACTGTTCCGTATTTATTAATATATGTTATAATGTAATTAAATAAGGATACTAGATTTGCTCATAATGCATGTACTGAATTTGTGATTTGAAATAACAAGACTTAAATGTCGAATTTAGCTTCTGTCCTAGTGGATAAGTACTTTAGCAAGTGGTAAAAGCAAGTCTACTCATATTTTTATTAATTAAGTAGTAAAGTTAACTATAGATTTTATTAAAATTTTTATTCTAATCACTTTAAATATCAATTACTTTTGTTGTAAATTTGAAAGAAATTTTATATTCTAGACTTGCTTTTCTTTATTTCTTTCATTATTCTTAAATTTTTATTATCTTTTATAAAAGGTTTATTAAC (double strand) [p28-Omp14 full promoter (SWB probe)]
binds: all assays above
